Results reported in publication PMC10526447 (Biomolecules, 2023).

Test system: CoVs

**Q.** For `CC(C)C[C@@H]1NC(=O)[C@H](Cc2c[nH]cn2)NC(=O)[C@H](Cc2c[nH]c3ccccc23)NC(=O)[C@H](C)NC(=O)[C@@H](NC(=O)[C@@H](N)CC(=O)O)CSSC[C@@H](C(=O)N[C@H](C(=O)O)[C@@H](C)O)NC(=O)[C@H](Cc2c[nH]c3ccccc23)NC(=O)[C@H](C(C)C)NC(=O)[C@H](CC(C)C)NC(=O)[C@H](CCC(=O)O)NC(=O)CNC1=O` [IBP], which IC50 is on record?
**A.** Its IC50 is > 50 µM.
